Anti-infective test results gathered from many reports (values: NIAID ChemDB through PubChem).

Shared fields: whole-cell or culture tests; agent: HIV-1; cells: CEM; read by: syncytia; read-out: fold resistance

Blank or dashed fields: not listed here. Conditions beyond the fields shown may differ between rows. Fold resistance: result on the changed form divided by that on wild type.

compound,changes,strain,result
Cc1occc1C(=S)Nc1ccc(Cl)c(SCC=C(Cl)Cl)c1,RT-Y181C,Pyridone-resistant (RT Y181C),26
CC(C)OC(=O)c1cc(NC(=S)OC(C)C)ccc1Cl,RT-E138K,-,44.1
COc1ccc(NC(=S)c2ccsc2C)cc1OCC=C(Cl)Cl,RT-V106A,Nevirapine-resistant isolate (RT V106A),18
CCc1c(Cc2cc(C)cc(C)c2)n(COCCO)c(=O)[nH]c1=O,RT-Y188H,IIIB,>357
Cc1occc1C(=S)Nc1ccc(Cl)c(/C=N/OC(C)(C)C)c1,RT-K103N,IIIB,8
CCC(=O)Oc1ccc(NC(=O)C2=C(C)OCCS2)cc1C(=O)OC(C)C,RT-E138K,TSAO-resistant (RT E138K),>2.22
CCOCn1c(Sc2ccccc2)c(CC)c(=O)[nH]c1=O,RT-Y188H,IIIB,>5000
C/C=C\COc1cc(NC(=S)OC(C)C)ccc1OC,RT-Y181C,-,92.5
COCCOC(=O)c1cc(NC(=O)C2=C(C)OCCS2)ccc1Cl,RT-L100I,TIBO-resistant (RT L100I),12.5
CC[C@H](C)OC(=S)Nc1ccc(Cl)c(C(=O)OC(C)C)c1,RT-Y181C,-,21.7
COc1ccc(NC(=O)c2ccoc2C)cc1OCC=C(Cl)Cl,RT-L100I,TIBO R82150-resistant (RT L100I),20
CC(C)(C)OC(=O)c1cc(NC(=S)OC(C)(C)C)ccc1Cl,RT-V106A,-,15.4
CCCOC(=O)c1ccc(C)c(NC(=O)C2=C(C)OCCS2)c1,RT-L100I,TIBO-resistant (RT L100I),>10
CC(C)O/N=C/c1cc(NC(=S)OC(C)C)ccc1Cl,RT-V106A,-,45
CC1=C(C(=O)Nc2ccc(Cl)c(OCC=C(Cl)Cl)c2)SCCO1,RT-V106A,Nevirapine-resistant isolate (RT V106A),1.67
COC(=O)Oc1ccc(NC(=O)C2=C(C)OCCS2)cc1C(=O)OC(C)C,RT-L100I,TIBO-resistant (RT L100I),>14.3
CC1=C(C(=O)Nc2ccc(Cl)c(C(=O)OC(C)C)c2)SCCO1,RT-Y188H,IIIB,66.7
CC1=C(C(=O)Nc2ccc(F)c(C(=O)OC(C)C)c2)SCCO1,RT-Y181C,PYR-resistant (RT Y181C),>28.6
COc1ccc(NC(=S)c2ccoc2C)cc1OCC=C(Cl)Cl,RT-Y181C,Pyridone-resistant (RT Y181C),20.8
CC1=C(C(=O)Nc2cc(Cl)cc(C(=O)OC(C)C)c2)SCCO1,RT-V106A,Nevirapine-resistant (RT V106A),1
C=CCOC(=O)c1cc(NC(=S)OC(C)C)ccc1Cl,RT-L100I,-,17.6
C/C(Cl)=C/COc1cc(NC(=S)c2ccoc2C)ccc1Cl,RT-Y181C,Pyridone-resistant (RT Y181C),14.3
CC(C)=CCOc1cc(NC(=S)c2ccoc2C)ccc1Cl,RT-L100I,IIIB,3
CCCCOC(=O)c1cc(NC(=O)C2=C(C)OCCS2)ccc1Cl,RT-Y181C,PYR-resistant (RT Y181C),17.5
CC(C)OC(=S)Nc1ccc(Cl)c(C(=O)OC2CC2)c1,RT-L100I,-,22.6
Cc1cc(C)cc(Cc2c(C(C)C)c(=O)[nH]c(=O)n2COCCO)c1,RT-L100I,IIIB (TIBO 82150) (RT-L100I),4.71
CC(C)OC(=O)c1cc(NC(=S)OCC2CC2)ccc1Cl,RT-Y181C,-,85.7
CCc1c(Sc2cc(C)cc(C)c2)n(COCCO)c(=S)[nH]c1=O,RT-K103N,IIIB TIBO R82913-resistant (RT K103N),82.5
CC(C)OC(=S)Nc1ccc(Cl)c(C(=O)OC(C)(C)C)c1,RT-V106A,-,125
CCc1c(Sc2cc(C)cc(C)c2)n(COCc2ccccc2)c(=O)[nH]c1=O,Nevirapine resistant (RT Y181C),IIIB,100
CCCCOC(=O)c1cc(NC(=S)OC(C)C)ccc1Cl,RT-Y181C,-,15
Cc1occc1C(=S)Nc1ccc(Cl)c(/C=N/OC(C)(C)C)c1,RT-E138K,IIIB,1.5
CC(=O)OCCOC(=O)c1cc(NC(=S)OC(C)C)ccc1Cl,RT-Y181C,-,≥10
COc1ccc(NC(=O)C2=C(C)OCCS2)cc1OCC=C(Cl)Cl,RT-Y181C,Pyridone-resistant (RT Y181C),2.5
CCCC1=C(C(=O)Nc2ccc(Cl)c(C(=O)OC)c2)SCCO1,RT-V106A,Nevirapine-resistant (RT V106A),>13.3
CO/N=C/c1cc(NC(=S)OC(C)C)ccc1Cl,RT-E138K,-,11.7

Repeating the final 2 entries:

{"compound": "CCCC1=C(C(=O)Nc2ccc(Cl)c(C(=O)OC)c2)SCCO1", "changes": "RT-V106A", "strain": "Nevirapine-resistant (RT V106A)", "result": ">13.3"}
{"compound": "CO/N=C/c1cc(NC(=S)OC(C)C)ccc1Cl", "changes": "RT-E138K", "result": "11.7"}